Measured values published in PubChem BioAssay AID651640 (Broad Institute, 2012).
This is a selection; strong and weak results do not stand in their true shares. Results filed as inconclusive are left out. Calls of active or inactive are those of the source. Rule as the data show it: active = CPE inhibition above about 20% (passing the limit was not always enough); inconclusive = no clear call, values can overlap the other calls; tested in BHK-21 cells.

Experiment: protection of cells from dengue 2 killing – plate reader, single concentration, primary screen (AID 651640);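 also: 0% = median of neutral control wells and 100% = median of positive control wells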
Settings: DENV2-infected cells, cytopathic effect rescue, at 9.99 µM, active compounds read high

Which CPE inhibition does the source give for `CN(C(=O)Cc1ccc(Cl)c(Cl)c1)C1CCCC[C@@H]1N1CCCC1` (stereo partly specified) here?
Its CPE inhibition is inactive: -8.2%.
